Pooled drug test results. Numbers come from NIAID ChemDB, via PubChem.

Common to all: tests in culture; species: Candida albicans; endpoint: MIC

An empty or dashed field is not shown.

structure,strain or isolate,value
Cc1c(S(=O)(=O)c2ccccc2)[n+](=O)c2cc(Cl)ccc2n1[O-],Clinical isolate 17,31.25 µg/mL
CCOC(=O)c1c(C)[nH]c(O)c1/C=N/NC(=O)c1ccncc1,,>25 µg/mL
ONC1=Nc2ccc3ccccc3c2SCC1,CBS 562,>100 µg/mL
CCOC(=O)c1c(C)[nH]c(O)c1/C=N/Nc1ccccc1,,>100 µg/mL
C[C@@H](n1cnc2cc(Oc3ccc(Cl)cc3)ccc2c1=O)[C@](O)(Cn1cncn1)c1ccc(F)cc1F,60 strains,≤0.03 µg/mL
N#CC1=C(N)N2C(=C(C#N)C1c1ccc(Cl)cc1)Oc1ccccc12,,>200 µg/mL
C[C@H]1[C@H](O)[C@@H](C)/C=C/C=C/C=C/C=C/C=C/C=C/C=C/[C@H](O[C@@H]2O[C@H](C)[C@@H](O)[C@H](N)[C@@H]2O)C[C@@H]2O[C@](O)(C[C@@H](O)C[C@@H](O)CC[C@H](O)[C@@H](O)C[C@@H](O)CC(=O)O[C@H]1C)C[C@H](O)[C@H]2C(=O)O,BC759,1.25 µg/mL
Cc1nn(CC(=O)NN)c(=O)n1NCc1ccccc1,,250 µg/mL
CCCCCCCCCOC[N+](C)(C)CCCCCCCC,ATCC 10231,28.6 µM
CCOC(=O)c1c(C)[nH]c(O)c1C=C(C(=O)O)C(=O)O,,>100 µg/mL
C[C@@H](n1cnc2cc(I)ccc2c1=O)[C@](O)(Cn1cncn1)c1ccc(F)cc1F,76 strains,0.07 µg/mL
CCCCCCCCCCCC[N+](C)(C)COC1CCCCCC1,ATCC 10231,26.6 µM
N#C/C(=C\c1ccc2c(c1)OCO2)c1nc2ccccc2o1,,>200 µg/mL
CCOC(=O)c1c(C)[nH]c(O)c1C=Nc1ccc(Cl)cc1,,>25 µg/mL
Cc1c(Sc2ccccc2)[n+](=O)c2cc(C(F)(F)F)ccc2n1[O-],Clinical isolate 9,31.25 µg/mL
CCCCCCCCCCCC[N+](C)(C)COCC(C)CC,ATCC 10231,71.4 µM
CC(=O)ONC1=Nc2ccc(Cl)cc2SCC1,CBS 562,50 µg/mL
CCOC(=O)c1c(C)[nH]c(O)c1/C=N/N1C(=N)SCC1=O,,>100 µg/mL
CCCCCCCCCCCC[N+](C)(C)COCCC(C)CCCC(C)C,ATCC 10231,238 µM
CCCCNC(=S)C(C#N)c1nc2ccccc2o1,,>200 µg/mL
O=[n+]1c(Sc2ccccc2)c(CBr)n([O-])c2ccccc21,Clinical isolate 12,31.25 µg/mL
CCCCCCCCCCCC[N+](C)(C)COC1CCCCCCCCCCC1,ATCC 10231,26.9 µM
C[C@@H](n1cnc2cc(F)c(F)cc2c1=O)[C@](O)(Cn1cncn1)c1ccc(F)cc1F,76 strains,0.15 µg/mL
CCCCCCCCCCCC[N+](C)(C)COCCCCC,ATCC 10231,28.6 µM
N#C/C(=N\Nc1ccccc1)c1nc2ccccc2o1,,>200 µg/mL
C[C@H](N)C(=O)N[C@H](C(=O)O)n1cc(F)c(=O)[nH]c1=O,BC759,1.6 µg/mL
C[C@@H](n1cnc2c(Cl)cccc2c1=O)[C@](O)(Cn1cncn1)c1ccc(F)cc1F,76 strains,10 µg/mL
S=C(NNC1=Nc2ccc3ccccc3c2SC1)Nc1ccccc1,CBS 562,50 µg/mL
N#C/C(=N\Nc1ccc(F)cc1)c1nc2ccccc2o1,,>200 µg/mL
COC(=O)NC1=Nc2ccc3ccccc3c2SC1,CBS 562,>100 µg/mL
CC#CC#CC#Cc1ccccc1,ATCC 18804,50 µg/mL
CN(CCCC#CC(C)(C)C)c1cccc2c1CCC(=O)N2,Clinical isolate 10,31.25 µg/mL
CCCCCCCC[N+](C)(C)COC1CCCCCCCCCCC1,ATCC 10231,25.6 µM
O=C(Nc1nc2ccc(NC(=O)[C@@H]3CCC[C@H](NCc4ccc5ccccc5c4)C3)cc2s1)C1CCCC1,IFM 40009,0.78 µM
CCOc1cc2c(cc1F)n([O-])c(C)c(S(=O)(=O)c1ccccc1)[n+]2=O,Clinical isolate 24,15.6 µg/mL
CCCCCCCCCCCC[N+](C)(C)COCCCCCCC,ATCC 10231,13.2 µM
O=C(ONC1=Nc2cc(Cl)ccc2SCC1)c1ccccc1,CBS 562,>100 µg/mL
C[C@@H](n1cnc2cc(N3CCOC3=O)ccc2c1=O)[C@](O)(Cn1cncn1)c1ccc(F)cc1F,76 strains,2.5 µg/mL

A second listing of 4 rows from above:

C[C@@H](n1cnc2cc(N3CCOC3=O)ccc2c1=O)[C@](O)(Cn1cncn1)c1ccc(F)cc1F ; strain or isolate: 76 strains ; value: 2.5 µg/mL
CCCCCCCCCCCC[N+](C)(C)COC1CCCCCC1 ; strain or isolate: ATCC 10231 ; value: 26.6 µM
C[C@H]1[C@H](O)[C@@H](C)/C=C/C=C/C=C/C=C/C=C/C=C/C=C/[C@H](O[C@@H]2O[C@H](C)[C@@H](O)[C@H](N)[C@@H]2O)C[C@@H]2O[C@](O)(C[C@@H](O)C[C@@H](O)CC[C@H](O)[C@@H](O)C[C@@H](O)CC(=O)O[C@H]1C)C[C@H](O)[C@H]2C(=O)O ; strain or isolate: BC759 ; value: 1.25 µg/mL
O=[n+]1c(Sc2ccccc2)c(CBr)n([O-])c2ccccc21 ; strain or isolate: Clinical isolate 12 ; value: 31.25 µg/mL

Conditions beyond the fields shown may differ between rows.